Tested on: brine shrimp nauplii
Assay: Brine shrimp lethality assay (BSLA)
Conditions: at highest 200 µg/mL concentration, 24 h

## Quercitin-3-O rhamnoside [Quercitin-3-O-rhamnoside]
  mortality rate / cytotoxic effect in brine shrimp lethality assay: 60%
